# Reference: paper PMC9486951, “Tetramate Derivatives by Chemoselective Dieckmann Ring Closure of threo-Phenylserines and Their Antibacterial Activity” (The Journal of Organic Chemistry, 2022)
# Tested on: Hela cell line
# Assay: Cytotoxicity assay (Alamar blue), Hela
# Format: cell-based, human
# Conditions: EC50 Hela cell line/MIC(S. aureus)
# Description: The selectivity of these compounds for activity against prokaryotic cells over mammalian cells was analyzed by considering their cytotoxicity against Hela, heK-293, CaCo, and MDCK […] cell lines, allowing estimation of the therapeutic ratio [EC50Hela cell line/MIC(S. aureus)] (Table 3). […]
# Screening of compounds were performed by Oxford Antibiotic Group, Austria. For MIC determination by broth dilution assay, the samples were tested in a primary 96 well plates screening assay, in duplicate. The compounds were diluted in Mueller Hinton Broth (MHB) for bacterial screening to a stock solution of 1000 µg/mL, serial diluted and overlaid with a microbe solution in a concentration of 10^4 CFU/ml. The plates were incubated for […]
# For cytotoxicity testing, the synthesized compounds were tested against four different cell lines: HeLa, HEK 293, MDCK and CaCo. The cells were seeded in a 96 well plate and incubated until a confluence of 80% was achieved (under physiological conditions - 37°C, 5% CO2 and 95% humidity). The samples were tested by serial dilution in triplicates with starting concentration of 250 µg/mL. After 24 and 48 hours the survival of cells was evaluated by microscope and measured with Alamar blue. IC50 values were obtained from the calibration curves. […]
row,Compound,therapeutic ratio (using Hela cell lines)
1,CC(C)(C)[C@@H]1O[C@H](c2ccccc2)[C@H]2C(O)=C(C(=O)NC34CC5CC(CC(C5)C3)C4)C(=O)N21 (mixture of isomers) [12a],26
2,CCOC(=O)C1=C(O)[C@@H]2[C@@H](c3ccc(F)cc3)O[C@@H](C(C)(C)C)N2C1=O (racemic) [10c],1
3,CCOC(=O)C1=C(O)[C@@H]2[C@@H](c3ccc(Cl)cc3)O[C@@H](C(C)(C)C)N2C1=O (racemic) [10d],2
4,CCOC(=O)C1=C(O)[C@@H]2[C@@H](c3ccc(Br)cc3)O[C@@H](C(C)(C)C)N2C1=O (racemic) [10e],2
